Measurements as given in article PMC9782603 (Viruses, 2022).

How the values were obtained:
[1] = system: HCV GT 1b subgenomic reporter replicon (strain Con1); assay: HCV GT 1b subgenomic replicon luciferase antiviral assay in Huh5-2 cells; type: cell-based; conditions: SI = CC50/EC50, GT 1b
[2] = system: HCV GT 3a (strain S52) replicon; assay: HCV GT 3a subgenomic replicon luciferase antiviral assay in Huh7.5-3a cells; type: cell-based; conditions: SI = CC50/EC50, GT 3a

SMILES | SI HCV Replicon 1b [1] | SI HCV Replicon 3a [2]
Nc1ccc2c(c1)c(=O)ncn2-c1ccccc1 [5a, 6-Amino-1-phenylquinazolin-4(1H)-one] | >20.32 | –
Cc1ccc(OCC(=O)Nc2ccc3c(c2)c(=O)nc(C)n3-c2ccccc2)cc1 [11a, N-(2-Methyl-4-oxo-1-phenyl-1,4-dihydroquinazolin-6-yl)-2-(p-tolyloxy)acetamide] | 160.71 | –
Cc1nc(=O)c2cc(NC(=O)COc3ccc(Cl)cc3)ccc2n1-c1ccccc1 [11b, 2-(4-Chlorophenoxy)-N-(2-methyl-4-oxo-1-phenyl-1,4-dihydroquinazolin-6-yl)acetamide] | 71.75 | 8.5
Cc1cccc(-n2c(C)nc(=O)c3cc(NC(=O)COc4ccc(Cl)cc4)ccc32)c1 [11e, 2-(4-Chlorophenoxy)-N-(2-methyl-4-oxo-1-(m-tolyl)-1,4-dihydroquinazolin-6-yl)acetamide] | 5.86 | 4.36
COC(=O)N[C@H](C(=O)N1CCC[C@H]1c1nc(-c2ccc(-c3ccc(-c4c[nH]c([C@@H]5CCCN5C(=O)[C@@H](NC(=O)OC)C(C)C)n4)cc3)cc2)c[nH]1)C(C)C [Daclatasvir, reference compound] | 680,769.23 | 2120.27
